Measured values from several laboratories, pooled; numbers as filed in NIAID ChemDB.

Common to all: target-level tests; agent: HIV-1; target: Protease; endpoint: IC50

ICn: concentration for n% inhibition. Lines come from different laboratories, so protocols vary.

SMILES | value
Cc1ccc(S(=O)(=O)N(C)CC[C@@H](O)[C@H](Cc2ccccc2)NC(=O)c2cccc(O)c2C)cc1 | 1.3 µM
Cc1cc(F)cc(C)c1OCC(=O)N[C@@H](Cc1ccccc1)C[C@H](O)[C@H](Cc1ccccc1)NC(=O)O[C@H]1CO[C@H]2OCC[C@H]21 | <0.0005 µM
CC(=O)N(CCC(O)[C@H](Cc1ccccc1)NC(=O)c1cccc(O)c1C)[C@H](C(=O)NC(C)(C)C)c1ccccc1 | 0.8 µM
CC(C)[C@H](NC(=O)COc1cccc2cnccc12)C(=O)N[C@@H](Cc1ccccc1)[C@H](O)C(=O)N1CSC[C@H]1C(=O)NC(C)(C)C | <0.05 µM
Cc1cccc(C)c1N(C)CC(=O)N[C@@H](Cc1ccccc1)C[C@H](O)[C@H](Cc1ccccc1)NC(=O)O[C@H]1CO[C@H]2OCC[C@H]21 | 0.0024 µM
CC(C)CCN(C[C@@H](O)[C@H](Cc1ccccc1)NC(=O)OCc1ccccc1)S(=O)(=O)C(F)(F)F | <10 µM
COC(C)[C@H](NC(=O)COc1cccc2ccccc12)C(=O)N[C@@H](Cc1ccccc1)[C@H](O)C(=O)N1CSC[C@H]1C(=O)NC(C)(C)C | <0.05 µM
O=C(COc1ccccc1)N[C@@H](Cc1ccccc1)C[C@H](O)[C@H](Cc1ccccc1)NC(=O)O[C@H]1CO[C@H]2OCC[C@H]21 | <0.0005 µM
N[C@@H](CO)C(=O)N[C@@H](Cc1ccccc1)[C@H](O)C(=O)NCC1CCCCC1 | >1000 µM
NC(=O)C[C@H](NC(=O)c1ccc2ccccc2n1)C(=O)N[C@@H](Cc1ccccc1)[C@H](O)CN1CC[C@H]2CCCC[C@H]2[C@H]1C(F)(F)F | 0.3 µM
CC[C@@H](C)[C@H](NC(=O)C1CCCN1C(=O)[C@@H](O)[C@H](Cc1ccccc1)NC(=O)[C@H](CCS(C)(=O)=O)NC(=O)CCc1ccccc1)C(=O)N[C@H](C(N)=O)C(C)C | >0.05 µM
CC(C)[C@@H](/C=C/C(=O)O)NC(=O)c1cc2ccccc2c(Cc2c(O)c(C(=O)N[C@H](/C=C/C(=O)O)C(C)C)cc3ccccc23)c1O | 8 µM
CC(C)CCN(C[C@@H](O)[C@H](Cc1ccccc1)NC(=O)OCc1ccccc1)S(=O)(=O)CCl | <10 µM
O=c1oc(-c2ccccc2)cc(O)c1SCCCc1ccccc1 | 1.41 µM
CC(=O)C[C@H](NC(=O)COc1cccc2ccccc12)C(=O)N[C@@H](Cc1ccccc1)[C@H](O)C(=O)N1CSC[C@H]1C(=O)NC(C)(C)C | >0.05 µM
Cc1ccc(S(=O)(=O)N(CCO)CC[C@@H](O)[C@H](Cc2ccccc2)NC(=O)c2cccc(O)c2C)cc1 | 6.5 µM
CNc1cc(C)c(OCC(=O)N[C@@H](Cc2ccccc2)C[C@H](O)[C@H](Cc2ccccc2)NC(=O)OC2CO[C@H]3OCC[C@@H]23)c(C)c1 | <0.0005 µM
CC(C)CCN(C[C@@H](O)[C@H](Cc1ccccc1)NC(=O)OCc1ccccc1)S(=O)(=O)c1cccs1 | 0.1 µM
CC(=O)N(CC[C@@H](O)[C@H](Cc1ccccc1)NC(=O)c1cccc(O)c1C)[C@@H](Cc1ccccc1)C(=O)NCc1cccc(C)c1 | 1.1 µM
Cc1cccc(C)c1OCC(=O)N[C@@H](Cc1ccccc1)C[C@H](O)[C@H](Cc1ccccc1)NC(=O)O[C@H]1CO[C@H]2OCC[C@H]21 | <0.0005 µM
CC(C)[C@H](NC(=O)[C@H](Cc1cccc2ccccc12)CS(=O)(=O)C(C)(C)C)C(=O)N[C@@H](Cc1ccccc1)[C@@H](O)CN1CCCC[C@H]1C(F)(F)F | 0.01 µM
CC(C)(C)OC(=O)N[C@@H](CC(N)=O)C(=O)N[C@@H](Cc1ccccc1)[C@H](O)C(=O)NCC1CCCCC1 | ~1000 µM
Cc1cc(N)cc(C)c1S(=O)CC(=O)N[C@@H](Cc1ccccc1)C[C@H](O)[C@H](Cc1ccccc1)NC(=O)O[C@H]1CO[C@H]2OCC[C@H]21 | 0.031 µM
CC(C)[C@H](NC(=O)[C@H](Cc1cccc2ccccc12)CS(=O)(=O)C(C)(C)C)C(=O)N[C@@H](Cc1ccccc1)[C@@H](O)CN1CCC[C@H]1C(F)(F)F | 0.005 µM
CC(C)[C@H](NC(=O)c1cc2ccccc2c(Cc2c(O)c(C(=O)N[C@H](C(=O)O)C(C)C)cc3ccccc23)c1O)C(=O)O | 40 µM
CC(C)C(NC[C@H](O)[C@H](Cc1ccccc1)NC(=O)[C@@H](NC(=O)[C@H](Cc1cccc2ccccc12)CS(=O)(=O)C(C)(C)C)C(C)C)C(F)(F)F | 0.01 µM
Cc1cc(N)c(N)c(C)c1OCC(=O)N[C@@H](Cc1ccccc1)C[C@H](O)[C@H](Cc1ccccc1)NC(=O)O[C@H]1CO[C@H]2OCC[C@H]21 | <0.0005 µM
CC(C)[C@@H](/C=C/C(=O)O)NC(=O)c1cc2ccccc2c(-c2c(O)c(C(=O)N[C@H](/C=C/C(=O)O)C(C)C)cc3ccccc23)c1O | 46 µM
CC[C@@H](C)[C@H](NC(=O)[C@@H]1CCCN1C(=O)[C@@H](O)[C@H](Cc1ccccc1)NC(=O)[C@H](CC(N)=O)NC(=O)OC(C)(C)C)C(=O)NCC(C)C | >5 µM
CCNC(=O)[C@H](Cc1ccccc1)N(CC[C@@H](O)[C@H](Cc1ccccc1)NC(=O)c1cccc(O)c1C)C(C)=O | 2.2 µM
CC[C@@H](C)[C@H](NC(=O)COc1cccc2ccccc12)C(=O)N[C@@H](Cc1ccccc1)[C@H](O)C(=O)N1CSC[C@H]1C(=O)NC(C)(C)C | <0.05 µM
Cc1cc(N(C)C)cc(C)c1OCC(=O)N[C@@H](Cc1ccccc1)C[C@H](O)[C@H](Cc1ccccc1)NC(=O)O[C@H]1CO[C@H]2OCC[C@H]21 | >0.0005 µM
CC(=O)N(CC[C@@H](O)[C@H](Cc1ccc(-c2ccccc2)cc1)NC(=O)c1cccc(O)c1C)[C@@H](Cc1ccccc1)C(=O)NC(C)(C)C | 0.029 µM
CCC(C)[C@H](NC(=O)C1CCCN1)C(=O)N[C@@H](Cc1ccccc1)[C@H](O)CN(CC(C)C)S(=O)(=O)c1ccc2c(c1)OCO2 | 0.003 µM
NC(=O)C[C@H](NC(=O)c1ccc2ccccc2n1)C(=O)N[C@@H](Cc1ccccc1)[C@@H](O)CN1CCC[C@H]1C(F)(F)F | 0.001 µM
COc1ccc(S(=O)(=O)N(CC(C)C)C[C@@H](O)[C@H](Cc2ccccc2)NC(=O)c2ccccc2S(C)(=O)=O)cc1 | <10 µM

A second listing of 4 rows from above:

SMILES	value
CC(=O)C[C@H](NC(=O)COc1cccc2ccccc12)C(=O)N[C@@H](Cc1ccccc1)[C@H](O)C(=O)N1CSC[C@H]1C(=O)NC(C)(C)C	>0.05 µM
Cc1cccc(C)c1OCC(=O)N[C@@H](Cc1ccccc1)C[C@H](O)[C@H](Cc1ccccc1)NC(=O)O[C@H]1CO[C@H]2OCC[C@H]21	<0.0005 µM
CC(=O)N(CC[C@@H](O)[C@H](Cc1ccccc1)NC(=O)c1cccc(O)c1C)[C@@H](Cc1ccccc1)C(=O)NCc1cccc(C)c1	1.1 µM
CC(=O)N(CCC(O)[C@H](Cc1ccccc1)NC(=O)c1cccc(O)c1C)[C@H](C(=O)NC(C)(C)C)c1ccccc1	0.8 µM